Share of PSTVd loop 6 variants by leaf site

Values reported by Wu et al. 2024 (doi:10.1371/journal.ppat.1012142).

The pool varies loop 6 of the PSTVd intermediate strain in the pattern UNNNCGNNNG; wild type is UGACCGCGAG (upper and lower strand joined, each 5' to 3', the first 5 letters being the upper strand, closing pairs included).

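Three N. benthamiana plants were inoculated with the whole mutant pool. Progeny were sequenced from the inoculated region (day 5), the margin of the inoculated leaf (day 10) and systemic leaves (day 12).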

Values are reads per thousand in the sample; higher means more abundant, 0 means not found. Each value is the mean of three plants. "Pool" is the share in the plasmid pool used as inoculum, on the same scale. The inoculated region was read from the minus strand, the other sites from the plus strand. IR is the inoculated region, LM the leaf margin, Sys the systemic leaves. The authors trace changes outside the varied positions to PCR and sequencing errors or to mutation in the plant; presence does not show that a variant is infectious alone. Samples held 36,220 to 57,551 reads, so the smallest values rest on one or two reads. Wild type was 20.7 per thousand in the pool and the most common sequence in every sample (inoculated region 195, 198, 203; leaf margin 629, 591, 734; systemic leaves 942, 870, 868).

| # | sequence | pool | IR | LM | Sys |
|---|---|---|---|---|---|
| 1 | UCCUCGUUUG | 0.327 | 0.0596 | 0 | 0 |
| 2 | UGGCCGCCUG | 0.275 | 0.119 | 0.0415 | 0 |
| 3 | UGCACGCCCG | 0.209 | 0.0835 | 0.00773 | 0 |
| 4 | UUAGCGACUG | 0.392 | 0.0957 | 0 | 0 |
| 5 | UAGACGUCAG | 0.183 | 0.120 | 0.0184 | 0 |
| 6 | UCCCCGUUGG | 0.340 | 0.0835 | 0.0750 | 0 |
| 7 | UAAACGUAUG | 0.196 | 0.0947 | 0.144 | 0 |
| 8 | UGCCCGUGUG | 0.209 | 0.0826 | 0.0155 | 0 |
| 9 | UCAUCGUCAG | 0.222 | 0.0533 | 0.00773 | 0 |
| 10 | UAUUCGACAG | 0.222 | 0.0893 | 0.0339 | 0 |
| 11 | UCGGAGCGUU | 0.0131 | 0 | 0 | 0 |
| 12 | UGUUCGGCCG | 0.209 | 0.0654 | 0 | 0 |
| 13 | UGACCGAGCG | 0.366 | 0.255 | 0.322 | 0.197 |
| 14 | UCUCCCCGAG | 0.0131 | 0 | 0 | 0 |
| 15 | UACACGUUGG | 0.222 | 0.0717 | 0.00841 | 0 |
| 16 | UUUACGGUCG | 0.105 | 0.120 | 0.0169 | 0 |
| 17 | UUAGCGAGGG | 0.261 | 0.0833 | 0.00773 | 0 |
| 18 | UCAACGUUAG | 0.275 | 0.112 | 0.00773 | 0 |
| 19 | UGCGCGGCGG | 0.144 | 0.107 | 0.00773 | 0 |
| 20 | UAGACGUUAG | 0.327 | 0.101 | 0 | 0 |
| 21 | UAGCCGGACG | 0.183 | 0.119 | 0.110 | 0 |
| 22 | UAGGCGGCAG | 0.248 | 0.0824 | 0 | 0 |
| 23 | UAUACGAUCG | 0.314 | 0.0833 | 0.0169 | 0 |
| 24 | UGACCGCAUG | 0.235 | 0.167 | 0.324 | 0.0474 |
| 25 | UAGGCGACUG | 0.157 | 0.0659 | 0 | 0 |
| 26 | UUACCGGCAG | 0.314 | 0.198 | 0.00773 | 0 |
| 27 | UCAACGUGAG | 0.157 | 0.631 | 0.0416 | 0 |
| 28 | UCGGCGAGAG | 0.288 | 0.131 | 0.00773 | 0 |
| 29 | UUUUCGUCGG | 0.0915 | 0.0952 | 0.0184 | 0 |
| 30 | UGUCCGUGUG | 0.366 | 0.106 | 0 | 0.00673 |
| 31 | UAACCGGCAG | 0.261 | 0.0786 | 0 | 0 |
| 32 | UUAUCGCUGG | 0.209 | 0.0958 | 0 | 0 |
| 33 | UUUCCGAUCG | 0.497 | 0.126 | 0.0247 | 0 |
| 34 | UUCGCGCACG | 0.209 | 0.0469 | 0.0184 | 0 |
| 35 | UUUGCGACAG | 0.209 | 0.0773 | 0 | 0 |
| 36 | UAUUCGGGCG | 0.157 | 0.646 | 0.137 | 0 |
| 37 | UUAGCGAUGG | 0.405 | 0.0766 | 0 | 0.00673 |
| 38 | UAGUCGUUCG | 0.340 | 0.0594 | 0.00920 | 0 |
| 39 | UUCGCGUUAG | 0.353 | 0.113 | 0 | 0 |
| 40 | UGUACGCACG | 0.196 | 0.0951 | 0 | 0 |
| 41 | UAGGCGGUAG | 0.196 | 0.0650 | 0 | 0 |
| 42 | UGGGCGCAUG | 0.0915 | 0.0893 | 0 | 0 |
| 43 | UGUACGGGGG | 0.0784 | 0.0902 | 0 | 0 |
| 44 | UAAACGCAGG | 0.105 | 0.659 | 0.0460 | 0.0467 |
| 45 | UGAUCGCGCG | 0.209 | 0.0836 | 0 | 0 |
| 46 | UAUGCGGUCG | 0.235 | 0.0892 | 0.00773 | 0 |
| 47 | UUCUCGCUCG | 0.418 | 0.0889 | 0 | 0 |

Extract of 2 entries:

With UCUCCCCGAG (pool 0.0131) the assay gave IR 0; LM 0; Sys 0.
With UUAGCGAUGG (pool 0.405) the assay gave IR 0.0766; LM 0; Sys 0.00673.